{"source": "PubChem BioAssay AID1224833 – University of Georgia, 2016", "assay": "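Host factors restraining rotavirus as candidate antiviral genes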 (primary screen)", "cell system": "monkey MA104 kidney cells", "reagent": "siRNA pool against human genes, 50 nM", "duration": "48 h knock-down before infection; read 24 h after infection", "challenge": "infection with rotavirus strain RV3 two days after transfection; infectious dose for this stage not given", "measurement": "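Rotavirus antigen per well by fluorescent immunoassay, normalised to non-targeting control wells on each plate and given as a standard z-score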", "direction": "z-score vs non-targeting control: higher = more rotavirus replication than with non-targeting control", "call rule": "In these data the active calls have z-score vs non-targeting control at about -1 or lower, or at about 1 or higher", "meaning of the calls": "active = z-score beyond 1 either way; inactive = z-score within 1 of zero", "note": "The whole screen tested about 12,000 reagents; shown is a random part of them. In the full data, about 5,600 (46%) were called active. 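Active calls cover z-scores past 1 in both directions, so they include lowered as well as raised rotavirus replication.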"}
{"Target gene":"RBBP5 (GeneID 5929)","z-score vs non-targeting control":-1.28,"call":"active"}
{"Target gene":"IGFBP3 (GeneID 3486)","z-score vs non-targeting control":0.501,"call":"inactive"}
{"Target gene":"BBLN (GeneID 79095)","z-score vs non-targeting control":-2.02,"call":"active"}
{"Target gene":"ABCC5 (GeneID 10057)","z-score vs non-targeting control":0.634,"call":"inactive"}
{"Target gene":"IRF8 (GeneID 3394)","z-score vs non-targeting control":-1.22,"call":"active"}
{"Target gene":"PPP1R9A (GeneID 55607)","z-score vs non-targeting control":-0.423,"call":"inactive"}
{"Target gene":"PLA2R1 (GeneID 22925)","z-score vs non-targeting control":-0.791,"call":"inactive"}
{"Target gene":"TSPOAP1 (GeneID 9256)","z-score vs non-targeting control":0.593,"call":"inactive"}
{"Target gene":"LCA5 (GeneID 167691)","z-score vs non-targeting control":1.11,"call":"active"}
{"Target gene":"RECQL (GeneID 5965)","z-score vs non-targeting control":-1.16,"call":"active"}
{"Target gene":"OR5M11 (GeneID 219487)","z-score vs non-targeting control":0.565,"call":"inactive"}
{"Target gene":"DOCK8-AS1 (GeneID 157983)","z-score vs non-targeting control":-0.238,"call":"inactive"}
{"Target gene":"SNRNP25 (GeneID 79622)","z-score vs non-targeting control":-0.427,"call":"inactive"}
{"Target gene":"TNRC18 (GeneID 84629)","z-score vs non-targeting control":0.942,"call":"inactive"}
{"Target gene":"IGSF22 (GeneID 283284)","z-score vs non-targeting control":-1.41,"call":"active"}
{"Target gene":"FAHD2A (GeneID 51011)","z-score vs non-targeting control":-1.77,"call":"active"}
{"Target gene":"IPCEF1 (GeneID 26034)","z-score vs non-targeting control":0.432,"call":"inactive"}
{"Target gene":"KRT35 (GeneID 3886)","z-score vs non-targeting control":-1.7,"call":"active"}
{"Target gene":"FAM222A (GeneID 84915)","z-score vs non-targeting control":-0.902,"call":"inactive"}
{"Target gene":"KRTAP12-1 (GeneID 353332)","z-score vs non-targeting control":-0.969,"call":"inactive"}
{"Target gene":"SAMD10 (GeneID 140700)","z-score vs non-targeting control":0.224,"call":"inactive"}
{"Target gene":"ZNF229 (GeneID 7772)","z-score vs non-targeting control":-1.53,"call":"active"}
{"Target gene":"TIMMDC1 (GeneID 51300)","z-score vs non-targeting control":-1.92,"call":"active"}
{"Target gene":"SPATA20 (GeneID 64847)","z-score vs non-targeting control":0.576,"call":"inactive"}
{"Target gene":"ORAI3 (GeneID 93129)","z-score vs non-targeting control":0.903,"call":"inactive"}
{"Target gene":"WASL (GeneID 8976)","z-score vs non-targeting control":-0.0084,"call":"inactive"}
{"Target gene":"DSPP (GeneID 1834)","z-score vs non-targeting control":-1.69,"call":"active"}
{"Target gene":"SNAPC1 (GeneID 6617)","z-score vs non-targeting control":-1.52,"call":"active"}
{"Target gene":"ADPRHL1 (GeneID 113622)","z-score vs non-targeting control":-0.531,"call":"inactive"}
{"Target gene":"OR11H6 (GeneID 122748)","z-score vs non-targeting control":-1.4,"call":"active"}
{"Target gene":"CCDC88C (GeneID 440193)","z-score vs non-targeting control":-0.0759,"call":"inactive"}
{"Target gene":"RTL8C (GeneID 8933)","z-score vs non-targeting control":1.49,"call":"active"}
{"Target gene":"SV2B (GeneID 9899)","z-score vs non-targeting control":0.672,"call":"inactive"}
{"Target gene":"SP110 (GeneID 3431)","z-score vs non-targeting control":0.116,"call":"inactive"}
{"Target gene":"HORMAD1 (GeneID 84072)","z-score vs non-targeting control":0.0737,"call":"inactive"}
{"Target gene":"FKBP8 (GeneID 23770)","z-score vs non-targeting control":1.17,"call":"active"}
{"Target gene":"TNFSF8 (GeneID 944)","z-score vs non-targeting control":-0.497,"call":"inactive"}
{"Target gene":"RANGRF (GeneID 29098)","z-score vs non-targeting control":-1.11,"call":"active"}
{"Target gene":"GET3 (GeneID 439)","z-score vs non-targeting control":0.654,"call":"inactive"}
{"Target gene":"ELMO2 (GeneID 63916)","z-score vs non-targeting control":0.696,"call":"inactive"}
{"Target gene":"TBC1D8 (GeneID 11138)","z-score vs non-targeting control":0.367,"call":"inactive"}
{"Target gene":"MYOM3 (GeneID 127294)","z-score vs non-targeting control":-0.772,"call":"inactive"}
{"Target gene":"PIK3R6 (GeneID 146850)","z-score vs non-targeting control":-1.5,"call":"active"}
{"Target gene":"AKAP12 (GeneID 9590)","z-score vs non-targeting control":-1.19,"call":"active"}
{"Target gene":"IGSF9 (GeneID 57549)","z-score vs non-targeting control":-1.26,"call":"active"}
{"Target gene":"LRP4 (GeneID 4038)","z-score vs non-targeting control":-0.161,"call":"inactive"}
{"Target gene":"INSL3 (GeneID 3640)","z-score vs non-targeting control":-0.956,"call":"inactive"}

4 consecutive reagents from above, for reference:
{"Target gene":"SAMD10 (GeneID 140700)","z-score vs non-targeting control":0.224,"call":"inactive"}
{"Target gene":"ZNF229 (GeneID 7772)","z-score vs non-targeting control":-1.53,"call":"active"}
{"Target gene":"TIMMDC1 (GeneID 51300)","z-score vs non-targeting control":-1.92,"call":"active"}
{"Target gene":"SPATA20 (GeneID 64847)","z-score vs non-targeting control":0.576,"call":"inactive"}
